Experimental data from PMC5559549.
Protein sequences can lack the tags named with them.

Molecular target: T1, OmpR-His6 (OmpR-P) (UniProt P74982)
T1 sequence (looked up): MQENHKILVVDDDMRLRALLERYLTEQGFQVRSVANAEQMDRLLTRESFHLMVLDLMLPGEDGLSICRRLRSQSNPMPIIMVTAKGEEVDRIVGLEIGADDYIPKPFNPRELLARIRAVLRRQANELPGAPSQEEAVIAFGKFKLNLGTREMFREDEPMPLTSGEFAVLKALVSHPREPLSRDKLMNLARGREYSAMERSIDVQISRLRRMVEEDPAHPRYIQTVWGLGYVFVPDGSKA
Assay: EMSA
Conditions: OmpR phosphorylated (acetyl phosphate), EMSA with 0-0.667 uM OmpR-P, 5% native polyacrylamide gel, ethidium bromide stain, pH and temperature not given (as in Nieckarz et al., 2016), recombinant protein, residues 1-239, protein details: His6, probe letters rebuilt from the primers and the genome

“ACCTATTTCCCGTTCTTCACCCAATGCTTGTAAGATGCCAAAAACTTTCAGAACCGACGAAACAGAGTCGGGCTGTTTATCTAAATCTGCAATAGCCATTTTTTGGTTACCCTACTCAGTTTTCTGTGTTTCATAAAACAATTTGTTTTAAAAAAAATAGAACAGTGGTTTTATTATAAAGGGAAGTCGCGAGACTGTGCAATAAACCAATGTGAATAATCGGATAAAAGCCTTGCAGACAGCAAATTAGCCTCTTTCCATGAAAGAGGCTAGTGCAAAATTCAACTATTTCCAGACTGATTCAGGCAATGTGGCTAAATATAGTGCTGGTTTACCGTGAACATCAGAGGTAAAGAGGATTTGCTTATCATCGGGTGTAAAGGATGGATGTGGATGTGTTACCTGGCGGTCACCTTCAAACACCTTCCATGAGGTGTCGTG (double strand) [kdgR promoter fragment]”: binds (shift at 0.333 uM, slightly lower affinity than kdgM1 and kdgM2).

“TGTCTAGAATCCTTCTGTTGCCGGTTTAAATATGGCTCTGGAATTGCCACATAAAATGACAACCTCACCATACTTTGATGACCCGCAAATTGTTTCACTGTTCGGTGATGCAATTCAATATATCGATTATGGCCAGAAGACCGTGCAAGAAACTGCAGAATACTTTAACAAACAAGGTGATCGTATTCTGAAACGCGCTATGCGTTAATAAATTAATTTAACTTAAGTATCTATTAAACCCTGCCATTAATTTGGCGGGGTTCTTTTGTTTTATAGCCATAAAATAATAACCAACCAGACAGACATCACAATTTAATATCTGTTTAAAAAAAGAATCATTAAGACAGATCTGGATCACATAAATATTTAATAATATAAATAGAATATGTATTCACAATAAATGAAACATTGTTTCTTTGTTGTCGGAATTGTTTTTCACTCGTGTGTTGATTTTTTATAGATTTGTTAATGACTTTTGATTTAAATAACCATAACCCTGGGATTATATAAAAATGAAATTTAAATTACTGACTCTGGCAGTGGCATCTGTAACCCGGGCA (double strand) [kdgM1 promoter fragment]”: binds (shift clear at 0.167 uM).

“ACTCTAGATGTGTTAGCTTCCCTCACTGGACCCGAATTGCTAACTTGATTTGTGCTTAATCACTGGGCTTTAGTCGAATATCAGTATTTTCATCTAAATAGGAACGACCCAAATATTATCCTCTCCTATATTAAATAAAAATAGATTTTAATCTAAAATACCCACTTCGCCATACTTTGGTGTGTATTGATTGCCAAATTATCCTCTGCGAAAATAACGTTATTATATAAAAGTGATTAAAACCAACAATAATACCGAAAAGAAAATATTCGACTGACATCTATTTTATTTATTCAGCCACATATACAATATTAACACCTACCGAGTCAAGACTATTTAATTCGAAGATGATCCCCTTCGAAATAGTCCCTATCCCTTGCTATCTCTAGGCTAGAACAAAAAACTTACAGTGCCAGTGCATTAGTCAAAACTATTTACTTTGAACCTTGTCACATAAATGGATATTGGCTCTATTAATTTCTAACTATTAGTCATGGATCTCGGAACTCCCGGGGT (double strand) [kdgM2-pelP-sghX promoter fragment]”: binds (shift clear at 0.167 uM).
